Earlier results as cited in paper PMC11676875, “In Vitro Screening of an In-House Library of Structurally Distinct Chemotypes Towards the Identification of Novel SARS-CoV-2 Inhibitors” (Pharmaceuticals, 2024).

System: dengue
Conditions: read-out: anti-dengue EC50; cited from earlier work

In the case of 3-(N-allyl)cytisin thiocarbamide, the EC50 is listed as 0.1 µM.
